Data set [1] can be described thus: general procedure: Fmoc solid-phase peptide synthesis; Rink amide resin (Compound 8); Wang resin (Compound 9); 2-chlorotrityl chloride resin for side-chain moieties; DIPC/HOBt. To be noted: whole synthesis.
The nature of data set [2]: general procedure: Fmoc solid-phase peptide synthesis; Fmoc-Rink amide resin; DIPC/HOBt. The settings on record: whole synthesis, HPLC Method D.

With “Tyr L-norvaline Glu Gly Thr Phe Thr Ser Asp Tyr Ser Ile L-norvaline Leu Asp Lys Ile Ala Gln Lys Ala Phe Val Gln Trp Leu Ile Ala Gly Gly Pro Ser Ser Gly Ala Pro Pro Pro Ser-NH2”, the “final HPLC purity” value in data set [1] (HPLC Method A) is recorded as 94.21%.

With “Tyr Aib Glu Gly Thr Phe Thr Ser Asp Tyr Ser Ile L-norleucine Leu Asp Lys Ile Ala Gln Lys Ala Phe Val Gln Trp Leu Ile Ala Gly Gly Pro Ser Ser Gly Ala Pro Pro Pro Ser-NH2”, the “final HPLC purity” value in data set [1] (HPLC Method D) is on record as 95.43%.

“Tyr Aib Glu Gly Thr Phe Thr Ser Asp Tyr Ser Ile L-homoalanine Leu Asp Lys Ile Ala Gln Lys Ala Phe Val Gln Trp Leu Ile Ala Gly Gly Pro Ser Ser Gly Ala Pro Pro Pro Ser-NH2”: in data set [1] (HPLC Method D), the “final HPLC purity” value is reported as 96.79%.

Consider “Tyr Aib Glu Gly Thr Phe Thr Ser Asp Tyr Ser Ile L-norvaline Leu Glu Lys Ile Ala Ala Gln Glu Phe Val Asn Trp Leu Leu Ala Gly Gly Pro Ser Ser Gly Ala Pro Pro Pro Ser Lys-NH2”, for which the “final HPLC purity” value in data set [2] is 94.55%.

With “Tyr L-norvaline Glu Gly Thr Phe Thr Ser Asp Tyr Ser Ile Aib Leu Asp Lys Ile Ala Gln Lys Ala Phe Val Gln Trp Leu Ile Ala Gly Gly Pro Ser Ser Gly Ala Pro Pro Pro Ser-NH2”, the “final HPLC purity” value in data set [1] (HPLC Method B) stood at 96.09%.

Values taken from patent publication US12622948B2 (SUN PHARMACEUTICAL INDUSTRIES LIMITED, priority 2020, dated 2026).
